Data taken from patent US11098090B2, “Mycobacteria tuberculosis chaperonin 60.1 peptides and uses thereof” (Revolo Biotherapeutics Limited, priority 2017, dated 2021).

Legend:
[1] = tested on: LPS induced lung neutrophil influx; assay: LPS mouse model of lung inflammation (BAL neutrophil count); type: in vivo; settings: 50 pg/mouse, i.v
[2] = Plasma stability at 37° C., mouse plasma; type: in vitro ADME
Description: (§1) Plasma Stability in Mouse, Rat and Human Plasma at 37° C.
(§2) Plasma: mouse (C57 Black 6 Male), rat (Sprague Dawley) and human containing heparin as an anti-coagulant.
(§3) Plasma samples in duplicate were incubated with peptide at 3 μM in a 600 μl volume at 37° C. with shaking. 50 μl aliquots were withdrawn after 2, 5, 30, 60 and 120 mins and quenched into 150 μl of ice-cold methanol containing the internal standard (tolbutamide). Samples were stored at −20° C. for 2 hours to allow protein precipitation. Samples were then centrifuged at 2500×g and the resulting supernatants transferred to a 96 well plate for LC-MS/MS analysis. Thalf was calculated in all matrices for each peptide.

[3] = Plasma stability at 37° C., human plasma; type: in vitro ADME
Description: as §1, §2, §3

[4] = Plasma stability at 37° C., rat plasma; type: in vitro ADME; settings: for Plasma half life Rat: Table 7, same conditions as Example 3
Description: as §1, §2, §3

[5] = Plasma stability, overall statements for mouse, rat and human plasma; type: in vitro ADME
Description: as §1, §2, §3

[6] = Table 3, 37° C., peptide 3 μM, read-out: Plasma Half Life (Th) Mouse
[7] = Table 3, 37° C., peptide 3 μM, read-out: Plasma Half Life (Th) Man
[8] = Table 3, 37° C., peptide 3 μM, read-out: Plasma Half Life (Th) Rat
[9] = Table 7, same conditions as Example 3

CC(C)C[C@H](NC(=O)CNC(=O)[C@H](Cc1c[nH]cn1)NC(=O)CCN)C(=O)N[C@@H](CC(N)=O)C(=O)N[C@H](C(=O)N[C@@H](CC(N)=O)C(=O)N[C@H](C(=O)N[C@@H](CC(C)C)C(=O)N[C@@H](CO)C(=O)N[C@@H](Cc1ccc(O)cc1)C(=O)NCC(=O)N[C@@H](CC(=O)O)C(N)=O)[C@@H](C)O)C(C)C [SEQ ID NO: 18, bAla-HGLNVNTLSYGD-NH2]
anti-inflammatory activity / efficacy in the LPS mouse lung inflammation model [1]: retains anti-inflammatory activity | half-life [2, 6]: 0.617 h | half-life [3, 7]: 2.85 h | half-life [4, 8]: > 6 h | Plasma half life Rat [4]: >6 h | plasma stability / half-life (Th) compared with parent peptide SEQ ID NO: 17 [5]: improved the plasma stability; also recorded: significant improvement in plasma half-life

CC(C)C[C@H](NC(=O)CNC(=O)[C@@H](N)Cc1c[nH]cn1)C(=O)N[C@@H](CC(N)=O)C(=O)N[C@H](C(=O)N[C@@H](CC(N)=O)C(=O)N[C@H](C(=O)N[C@@H](CC(C)C)C(=O)N[C@@H](CO)C(=O)N[C@@H](Cc1ccc(O)cc1)C(=O)NCC(=O)N[C@@H](CC(=O)O)C(=O)NCCC(N)=O)[C@@H](C)O)C(C)C [SEQ ID NO: 21, HGLNVNTLSYGD-bAla-NH2]
anti-inflammatory activity / efficacy in the LPS mouse lung inflammation model [1]: loose efficacy | half-life [2, 6]: 1.78 h | half-life [3, 7]: 2.52 h | half-life [4, 8]: 1.25 h | plasma stability / half-life (Th) compared with parent peptide SEQ ID NO: 17 [5]: improved the plasma stability; also recorded: superior Th

CC(C)C[C@H](NC(=O)CNC(=O)[C@H](Cc1c[nH]cn1)NC(=O)CCN)C(=O)N[C@@H](CC(N)=O)C(=O)N[C@H](C(=O)N[C@@H](CC(N)=O)C(=O)N[C@H](C(=O)N[C@@H](CC(C)C)C(=O)N[C@@H](CO)C(=O)N[C@@H](Cc1ccc(O)cc1)C(=O)NCC(=O)N[C@@H](CC(=O)O)C(=O)NCCC(N)=O)[C@@H](C)O)C(C)C [SEQ ID NO: 22, bAla-HGLNVNTLSYGD-bAla-NH2]
anti-inflammatory activity / efficacy in the LPS mouse lung inflammation model [1]: loose efficacy; also recorded: loss of biological activity | half-life [2, 6]: > 6 h | Plasma half life Mouse [2, 9]: >6 h | half-life [3, 7]: > 6 h | Plasma half life Man [3, 9]: >6 h | half-life [4, 8]: > 6 h | Plasma half life Rat [4]: >6 h | plasma stability / half-life (Th) compared with parent peptide SEQ ID NO: 17 [5]: improved the plasma stability; also recorded: superior Th; also recorded: improved the stability even further

CC(C)C[C@H](NC(=O)CNC(=O)[C@H](Cc1c[nH]cn1)NC(=O)COCCOCCN)C(=O)N[C@@H](CC(N)=O)C(=O)N[C@H](C(=O)N[C@@H](CC(N)=O)C(=O)N[C@H](C(=O)N[C@@H](CC(C)C)C(=O)N[C@@H](CO)C(=O)N[C@@H](Cc1ccc(O)cc1)C(=O)NCC(=O)N[C@@H](CC(=O)O)C(N)=O)[C@@H](C)O)C(C)C [SEQ ID NO: 24, O2Oc-HGLNVNTLSYGD-NH2]
half-life ([2]; Table 7, same conditions as Example 3, read-out: Plasma half life Mouse): 0.85 h | half-life ([3]; Table 7, same conditions as Example 3, read-out: Plasma half life Man): 4.32 h | half-life ([4]; Table 7, same conditions as Example 3, read-out: Plasma half life Rat): > 6 h

“Also recorded” adds a separate entry of the source.
